Measured values taken from patent US20120108492A1, “LIGAND-SPECIFIC NON-ANTIBODY COMPOUNDS THAT INHIBIT CR2 ACTIVATION AND METHODS OF USE THEREOF” (The Regents of the University of Colorado, priority 2008, published 2012).

target: full-length wild-type human CR2 on transfected K562 erythroleukemia cells (human); assay: flow cytometry, PE-conjugated gp350-biotin on CR2-transfected K562 cells

Row | Substance | % binding relative to wild-type EBV gp350
1 | EBV gp350 D215A (from UniProt P03200 1-470; P0ABD8 70-156) (ligand) | 86.5%
2 | EBV gp350 E201A (from UniProt P03200 1-470; P0ABD8 70-156) (ligand) | 103%
3 | EBV gp350 E214A (from UniProt P03200 1-470; P0ABD8 70-156) (ligand) | 76.2%
